US20210102215A1, “TREATMENT AND PREVENTION OF VIRAL INFECTION” (priority 2016, published 2021)

Tested on: Huh-7 cells
Settings: human

SMILES	Cytotoxicity
CCOC(=O)N1CCC(CN(Cc2ccc(Cl)cc2)Cc2ccc([N+](=O)[O-])s2)C1 (centres unmarked) [SR9009]	Neither GSK4112 nor SR9009 showed any detectable cytotoxicity
CC(C)(C)OC(=O)CN(Cc1ccc(Cl)cc1)Cc1ccc([N+](=O)[O-])s1 [GSK4112]	Neither GSK4112 nor SR9009 showed any detectable cytotoxicity
